The values below come from PMC8561388 (mBio, 2021).

Data set [1] relates to attenuated OP-CDV strain (OP^neon/nLucP). The format is cell-based, canine distemper virus. The note with it: for SI: CC50/IC50, CDV (OP).
In data set [2] the test system is wild-type A75/17-CDV (A75^neon/nLucP). The format is cell-based, canine distemper virus.
The test system of another data set is Vero and P114 cell lines. Briefly: Click chemistry intracellular localization. The format is cell-based, monkey, canine. The conditions noted are these: 2 μM, 3 h, Vero and P114 cells.

Structures are written as SMILES. Like-named read-outs stand apart in the source and are kept apart here.

The compound `N#Cc1cccc(NC(=O)Cc2ccccc2)c1` [compound 3, reference compound] yielded an SI in data set [1] (Vero-cSLAM) of about 16.

On to `CN(C(=O)COc1cccc2c1OC(C)(C)C2)c1nc2c(s1)CCCC2` [compound 2], for which the SI in data set [2] (CC50/IC50, CDV (A75), Vero-cSLAM) is on record as 17,000; in data set [1] (MDCK), 1,300; in data set [1] (P114), 3,400; in data set [1] (Vero) it was 17,000; in data set [1] (Vero-cSLAM), 20,000. In addition, in the data set with Vero-cSLAM cells, the “ratio of cell-cycle-affecting concentration to IC50” value is “about 200 times”. Also, in data set [1], the “improvement of inhibitory activity versus compound 1” value is on record as “about 100 times”.

`C#CCCCN(C(=O)COc1cccc2c1OC(C)(C)C2)c1nc2ccccc2s1` [compound 23]: the “intracellular localization (click reaction with azide-linked Alexa Fluor 488)” value in the data set on Vero and P114 cell lines is given as “intracellular localization”.

Regarding `CC1(C)Cc2cccc(OCC(=O)Nc3nc4ccccc4s3)c2O1` [compound 1], the SI in data set [2] came out at 74. Further, the “ratio of cell-cycle-affecting concentration to IC50” value in the data set on Vero-cSLAM cells is reported as “about 60 times”.
